Measured values from several laboratories, pooled; numbers as filed in NIAID ChemDB.

Common to all: toxicity to cultured cells; measure: CC50

An empty or dashed field is not shown. Conditions beyond the fields shown may differ between rows. CCn is the concentration with n% toxicity to the cells.

compound	cells	method	value
COc1ccc2nc3cc(Cl)ccc3c(NCCCCNC(=O)[C@@H](N)Cc3cnc[nH]3)c2c1	KB cells	MTS	0.405 µM
CCCCCCCCCCCCCCCCCCOC[C@H](COP(=O)(O)CO[C@H](CO)Cn1ccc(N)nc1=O)OCc1ccccc1	DAUDI		>1 µM
COc1ccc(N(C)C(=O)[C@H](Cc2cc(F)cc(F)c2)NC(=O)COc2nc3ccccc3n(CC(=O)N[C@@H](Cc3cc(F)cc(F)c3)C(=O)N(C)c3ccc(OC)cc3)c2=O)cc1	MT-2	XTT	50 µM
O=c1c2ncn(COCCO)c2nc2[nH]c(-c3ccc(F)cc3)cn12	OST TK-/HSV-1 TK+		0.27 µg/mL
COc1ccc(N(C)C(=O)[C@H](Cc2ccccc2)NC(=O)CN2c3ccccc3N(CC(=O)N[C@@H](Cc3ccccc3)C(=O)N(C)c3ccc(OC)cc3)S2(=O)=O)cc1	MT-2	XTT	100 µM
CC1COc2c(N3CCN(C)CC3)c(F)cc3c(=O)c(C(=O)O)cn1c23	SK-K		375 µg/mL
O=c1c2ncn(COCCO)c2nc2[nH]c(-c3ccccc3)c(Cc3ccc(F)cc3)n12	OST TK-		240 µg/mL
Nc1ccn([C@@H]2O[C@H](CO)[C@@H](O)[C@H]2O)c(=S)n1	RPMI8226		>386 µM
CC1(C)[C@@H](O)CC[C@]2(C)[C@H]3C(=O)C=C4[C@@H]5C[C@@](C)(C(=O)OCc6ccc(S(C)(=O)=O)cc6)CC[C@]5(C)CC[C@@]4(C)[C@]3(C)CC[C@@H]12	HepG2.2.15		1030 µM
Cc1cc(OCc2ccc(-c3cccc(C(=O)O)c3)cc2)cnc1CS(=O)c1nc2ccccc2[nH]1	HEK293T	MTT	80 µM
CCc1c(O)c2c(c(O)c1OC)C(=O)C(OC)CC2	BCA		5.36 µg/mL
Cc1c(-c2ccc(F)cc2)[nH]c2nc3c(ncn3COCCO)c(=O)n12	OST TK-/HSV-1 TK+		0.043 µg/mL
CCOC(=O)CCCOC(=O)[C@@]1(C)CC[C@]2(C)CC[C@]3(C)C(=CC(=O)[C@@H]4[C@@]5(C)CC[C@H](O)C(C)(C)[C@@H]5CC[C@]43C)[C@@H]2C1	HepG2.2.15		53.34 µM
CCCCC(C)(C)[C@H](O)/C=C/[C@H]1C=CC(=O)[C@@H]1CCCCCCC(=O)O	VB	cell count	>8 µg/mL
Cc1[nH]nc2c1C(c1cc(C#N)cc(C(F)(F)F)c1)(C(C)C)C(C#N)=C(N)O2	L6	fluorescence	131.8 µM
CC1(C)[C@@H](O)CC[C@]2(C)[C@H]3C(=O)C=C4[C@@H]5C[C@@](C)(C(=O)OCC(N)=O)CC[C@]5(C)CC[C@@]4(C)[C@]3(C)CC[C@@H]12	HepG2.2.15		55.33 µM
COc1cnc(CS(=O)c2nc3ccc(C)cc3[nH]2)c(C)c1OC	HEK293T	MTT	125 µM
CC1(C)[C@@H](O)CC[C@]2(C)[C@H]3CC=C4[C@@H]5C[C@@](C)(C(=O)OCc6ccc(Br)cc6F)CC[C@]5(C)CC[C@@]4(C)[C@]3(C)CC[C@@H]12	HepG2.2.15		1150 µM
CC(C)N(Cc1cccc(OCCCCCC(=O)OC(=O)O)c1)C(=O)c1ccc(-c2cccc(Br)c2)cc1	BJ		>20 µM
Nc1nc(=S)n([C@@H]2O[C@H](CO)[C@@H](O)[C@@H]2O)cc1F	RPMI8226		1098 µM
CCCN(Cc1ccccc1OCC(=O)OCC)C(=O)c1ccc(-c2ccc3c(c2)OCO3)cc1	RAJI		>20 µM
Cc1[nH]nc2c1C(c1cc(C#N)cc(C#N)c1)(C(C)C)C(C#N)=C(N)O2	L6	fluorescence	>290 µM
COc1ccc(CNc2ccc(C(=O)C3CC3c3ccc(Cl)cc3)cc2)cc1OC	C1008 (Vero cells)		394 µg/mL
CN(C(=O)[C@H](Cc1cc(F)cc(F)c1)NC(=O)CN1c2ccccc2N(CC(=O)N[C@@H](Cc2cc(F)cc(F)c2)C(=O)N(C)c2ccc3sncc3c2)S1(=O)=O)c1ccc2sncc2c1	MT-2	XTT	100 µM
C=CCCOC(=O)[C@@]1(C)CC[C@]2(C)CC[C@]3(C)C(=CC(=O)[C@@H]4[C@@]5(C)CC[C@H](O)C(C)(C)[C@@H]5CC[C@]43C)[C@@H]2C1	HepG2.2.15		>1750 µM
O=C(c1ccc(N2CCOCC2)cc1)C1CC1c1ccc(Cl)cc1	C1008 (Vero cells)		235 µg/mL
Nc1ccn([C@H]2CC[C@@H](CO)O2)c(=O)n1	1G5 T	trypan blue	>1 µM
Nc1nc2c(ncn2/C=C2/CC2(CO)CF)c(=O)[nH]1	Akata		55.7 µM
COc1ccc(C2CC2C(=O)c2ccc(N3CCN(C)CC3)cc2)cc1OC	C1008 (Vero cells)		235 µg/mL
COC(=O)c1cccc(-c2ccc(COc3cnc(CS(=O)c4nc5ccccc5[nH]4)c(C)c3)cc2)c1	HEK293T	MTT	10 µM
CC(C)C1(c2cc(C#N)cc(C#N)c2)C(C#N)=C(N)Oc2[nH]ncc21	L6	fluorescence	242.4 µM
CO[C@H]1CC(=O)c2c(O)cccc2[C@H]1O	BCA		19.16 µg/mL
CCCCCCCC/C=C\CCCCCCCOCCOP1(=O)CO[C@@H](Cn2ccc(N)nc2=O)CO1	BCBL-1		>0.9 µM
CCCCCCCCNc1ccc(C(=O)C2CC2c2ccc(Cl)cc2)cc1	C1008 (Vero cells)		235 µg/mL
CCCCCCCCCCCCCCCCOP1(=O)CO[C@@H](Cn2ccc(N)nc2=O)CO1	BCBL-1		>1 µM
CC1(C)[C@@H](O)CC[C@]2(C)[C@H]3C(=O)C=C4[C@@H]5C[C@@](C)(C(=O)OCc6cccc7cccnc67)CC[C@]5(C)CC[C@@]4(C)[C@]3(C)CC[C@@H]12	HepG2.2.15		>1700 µM
COC(=O)c1cccc(-c2ccc(OCCCOc3cnc(CS(=O)c4nc5ccccc5[nH]4)c(C)c3)cc2)c1	HEK293T	MTT	110 µM
CSc1c(C#N)c2c(N)ncnc2n1COC(CO)CO	ALEX		~800 µM
Cc1cc(COc2ccc(-c3cccc(C(=O)O)c3)cc2)cnc1CS(=O)c1nc2ccccc2[nH]1	HEK293T	MTT	95 µM
Cc1ccc(N(C)C(=O)[C@H](Cc2cc(F)cc(F)c2)NC(=O)NS(=O)(=O)N[C@@H](Cc2cc(F)cc(F)c2)C(=O)N(C)c2ccc(C)nc2)cn1	MT-2	XTT	100 µM
COc1c(O)c2c(c(O)c1CCOC(C)=O)CCC(OC)C2=O	NCI-H187		0.25 µg/mL
Cc1[nH]nc2c1C(c1cc(C#N)cc(-c3ccc(C(=O)O)s3)c1)(C(C)C)C(C#N)=C(N)O2	L6	fluorescence	>224.5 µM
Nc1ncnc2c1ncn2/C=C1/CC1(CO)CF	Akata		64.1 µM
COc1ccc2nc3cc(Cl)ccc3c(NCCCCCCNC(=O)[C@@H]3CCCN3)c2c1	KB cells	MTS	0.443 µM
CCc1c(C)[nH]c(=O)c(N(C)C)c1Cc1cc(C)cc(C)c1	P4		>100 µM
COc1ccc(N(CCF)C(=O)[C@H](Cc2cc(F)cc(F)c2)NC(=O)Cn2c(=O)n(CC(=O)N[C@@H](Cc3cc(F)cc(F)c3)C(=O)N(CCF)c3ccc(OC)cc3)c3ccccc32)cc1	MT-2	XTT	100 µM
O=C(c1ccc(NCc2ccco2)cc1)C1CC1c1ccc(Cl)cc1	C1008 (Vero cells)		235 µg/mL
CCCCCCCCCCCCCCCCOP(=O)(O)CO[C@H](CO)Cn1ccc(N)nc1=O	BCBL-1		>1 µM
Cc1cn([C@H]2C[C@H](O)[C@@H](CO)O2)c(=S)[nH]c1=O	RPMI8226		629 µM
CC(=O)O[C@@H](C/C=C(\C)C(=O)O)[C@@H](C)[C@H]1CC[C@@]2(C)C3=C(CC[C@]12C)[C@@]1(C)CC[C@@H](O)C(C)(C)C1CC3	NCI-H187	resazurin	34.15 µg/mL
CCCCCCCNc1ccc(C(=O)C2CC2c2ccc(OC)c(OC)c2)cc1	C1008 (Vero cells)		235 µg/mL
C[N+](C)(C)C(Cc1c[nH]c2ccccc12)C(=O)[O-]	NCI-H187	resazurin	>50 µg/mL
COCCCOc1cnc(CS(=O)c2nc3ccccc3[nH]2)c(C)c1	HEK293T	MTT	150 µM
CC(C)N(Cc1ccc(OCC(=O)O)cc1)C(=O)c1ccc(-c2ccc3c(c2)OCO3)cc1	RAJI		>20 µM
C=CCN(C(=O)[C@H](Cc1cc(F)cc(F)c1)NC(=O)c1cccc(S(=O)(=O)N[C@@H](Cc2cc(F)cc(F)c2)C(=O)N(CC=C)c2ccc(OC)cc2)c1)c1ccc(OC)cc1	MT-2	XTT	1.6 µM
Nc1nc(=S)n([C@@H]2O[C@H](CO)[C@@H](O)[C@@H]2O)cc1Cl	RPMI8226		>341 µM
CCN1CCC(O)(/C=C/c2ccc(Cl)cc2)C(C(=O)/C=C/c2ccc(Cl)cc2)C1	MOLT 4/C8		14.5 µg/mL
C=CCCC(=O)NC[C@H](O)c1ccc2c(c1)OCO2	BJ		<7.5 µM
c1ccc2c(NCCCCN3CCNCC3)c3ccccc3nc2c1	KB cells	MTS	0.695 µM
CCOC(=O)CCCCCOc1cccc(CNC(C)C)c1	RAJI		>20 µM
Nc1nc(=S)n([C@H]2C[C@H](O)[C@@H](CO)O2)cc1Br	RPMI8226		293 µM
Cc1cc(OCCCOc2ccc(-c3cccc(-c4nn[nH]n4)c3)cc2)cnc1CS(=O)c1nc2ccccc2[nH]1	HEK293T	MTT	75 µM
COC1=CC(=O)c2c(cc(OC)c(C(C)C3=C(O)c4c(cc(O)c(C(C)=O)c4O)C(=O)C3=O)c2O)C1=O	NCI-H187		3.72 µg/mL
Cc1nc2cc(N(C)C(=O)[C@H](Cc3cc(F)cc(F)c3)NC(=O)NS(=O)(=O)N[C@@H](Cc3cc(F)cc(F)c3)C(=O)N(C)c3ccc4sc(C)nc4c3F)ccc2s1	MT-2	XTT	100 µM
CC(=O)c1cccc(-c2ccc(C(=O)N(Cc3cccc(OCCCCCC(=O)OC(=O)O)c3)C(C)C)cc2)c1	HEK 293		>20 µM
Cc1[nH]nc2c1C(c1cc(Cl)cc(-c3cccc(C#N)c3)c1)(C1CCC1)C(C#N)=C(N)O2	L6	fluorescence	6.8 µM
C/C(=C\C[C@H](O)[C@@H](C)[C@H]1CC[C@@]2(C)C3=C(CC[C@]12C)[C@@]1(C)CCC(=O)C(C)(C)C1CC3)C(=O)O	NCI-H187	resazurin	48.35 µg/mL
CCCCCCCC/C=C\CCCCCCCOCCCOP1(=O)CO[C@@H](Cn2ccc(N)nc2=O)CO1	DAUDI		>1 µM

Again, the opening 10 rows:

compound | cells | method | value
COc1ccc2nc3cc(Cl)ccc3c(NCCCCNC(=O)[C@@H](N)Cc3cnc[nH]3)c2c1 | KB cells | MTS | 0.405 µM
CCCCCCCCCCCCCCCCCCOC[C@H](COP(=O)(O)CO[C@H](CO)Cn1ccc(N)nc1=O)OCc1ccccc1 | DAUDI |  | >1 µM
COc1ccc(N(C)C(=O)[C@H](Cc2cc(F)cc(F)c2)NC(=O)COc2nc3ccccc3n(CC(=O)N[C@@H](Cc3cc(F)cc(F)c3)C(=O)N(C)c3ccc(OC)cc3)c2=O)cc1 | MT-2 | XTT | 50 µM
O=c1c2ncn(COCCO)c2nc2[nH]c(-c3ccc(F)cc3)cn12 | OST TK-/HSV-1 TK+ |  | 0.27 µg/mL
COc1ccc(N(C)C(=O)[C@H](Cc2ccccc2)NC(=O)CN2c3ccccc3N(CC(=O)N[C@@H](Cc3ccccc3)C(=O)N(C)c3ccc(OC)cc3)S2(=O)=O)cc1 | MT-2 | XTT | 100 µM
CC1COc2c(N3CCN(C)CC3)c(F)cc3c(=O)c(C(=O)O)cn1c23 | SK-K |  | 375 µg/mL
O=c1c2ncn(COCCO)c2nc2[nH]c(-c3ccccc3)c(Cc3ccc(F)cc3)n12 | OST TK- |  | 240 µg/mL
Nc1ccn([C@@H]2O[C@H](CO)[C@@H](O)[C@H]2O)c(=S)n1 | RPMI8226 |  | >386 µM
CC1(C)[C@@H](O)CC[C@]2(C)[C@H]3C(=O)C=C4[C@@H]5C[C@@](C)(C(=O)OCc6ccc(S(C)(=O)=O)cc6)CC[C@]5(C)CC[C@@]4(C)[C@]3(C)CC[C@@H]12 | HepG2.2.15 |  | 1030 µM
Cc1cc(OCc2ccc(-c3cccc(C(=O)O)c3)cc2)cnc1CS(=O)c1nc2ccccc2[nH]1 | HEK293T | MTT | 80 µM